## Sequence variants of PSTVd stem 26 after infection

Reference: Wu et al. 2024, doi:10.1371/journal.ppat.1012142.

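A pool of all variants was put on leaves of three Nicotiana benthamiana plants. Samples came from the inoculated region at 5 days, the leaf margin at 10 and upper systemic leaves at 12.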

PSTVd intermediate strain, stem 26: wild type AGGGUACCCU, pool pattern AGGGUNNCNN; upper and lower strand joined, each 5' to 3', the first 5 letters being the upper strand.

Numbers give reads per thousand; 0 = not seen among the reads, higher = more abundant. Each site shows the three plants. "Pool" is the share in the plasmid pool used as inoculum, on the same scale. The inoculated region was read from the minus strand, the other sites from the plus strand. IR is the inoculated region, LM the leaf margin, Sys the systemic leaves. The authors trace changes outside the varied positions to PCR and sequencing errors or to mutation in the plant; presence does not show that a variant is infectious alone.

{"sequence": "AGGGUCGCGU", "pool": "4.85", "IR": "1.87 1.86 1.25", "LM": "0 0 0", "Sys": "0.0187 0 0.0496"}
{"sequence": "AGGGUCGCUA", "pool": "3.01", "IR": "1.02 0.394 0.688", "LM": "0.0445 0 0", "Sys": "0 0 0"}
{"sequence": "AGGGUCGCUC", "pool": "3.22", "IR": "1.82 2.07 2.19", "LM": "1.02 0 0.744", "Sys": "0 0 0.0331"}
{"sequence": "AGGGUCGCUG", "pool": "4.11", "IR": "2.72 2.65 1.94", "LM": "0 0.0261 0.0298", "Sys": "0.430 0.128 0"}
{"sequence": "AGGGUCGCUU", "pool": "4.31", "IR": "2.06 2.15 1.20", "LM": "2.07 1.72 0.0298", "Sys": "0.0187 0 0"}
{"sequence": "AGGGUCGGAC", "pool": "2.25", "IR": "1.61 1.76 0.688", "LM": "1.09 1.65 0.446", "Sys": "0 0 0.0496"}
{"sequence": "AGGGUCGGCU", "pool": "0.0329", "IR": "0 0 0", "LM": "0 0 0", "Sys": "0 0 0"}
{"sequence": "AGGGUCGUCG", "pool": "0.0493", "IR": "0 0 0", "LM": "0 0 0", "Sys": "0 0 0"}
{"sequence": "AGGGUCUACC", "pool": "0.0493", "IR": "1.30 1.84 1.38", "LM": "1.16 0 0.476", "Sys": "0 2.01 0"}
{"sequence": "AGGGUCUACU", "pool": "0.0329", "IR": "0 0 0", "LM": "0 0 0", "Sys": "0 0 0"}
{"sequence": "AGGGUCUCAA", "pool": "2.98", "IR": "0.851 0.473 0.559", "LM": "0 0 0", "Sys": "0 0 0"}
{"sequence": "AGGGUCUCAC", "pool": "6.30", "IR": "6.88 8.82 6.41", "LM": "2.34 2.48 1.96", "Sys": "0.486 0.998 0.0496"}
{"sequence": "AGGGUCUCAG", "pool": "2.91", "IR": "1.02 0.735 0.473", "LM": "0 0 0.0298", "Sys": "0 0 0"}
{"sequence": "AGGGUCUCAU", "pool": "3.65", "IR": "1.49 1.37 1.29", "LM": "0.0223 0 0.0298", "Sys": "0 0 0"}
{"sequence": "AGGGUCUCCA", "pool": "5.44", "IR": "2.29 2.73 1.89", "LM": "0 0.0261 0", "Sys": "0 1.71 0"}
{"sequence": "AGGGUCUCCC", "pool": "3.29", "IR": "2.55 2.47 2.58", "LM": "1.27 0 1.16", "Sys": "0 0 0.826"}
{"sequence": "AGGGUCUCCG", "pool": "5.64", "IR": "2.39 2.36 2.11", "LM": "0.0223 0 0.0298", "Sys": "0 0 0.0331"}
{"sequence": "AGGGUCUCCU", "pool": "4.62", "IR": "2.65 2.86 1.76", "LM": "0 0 0.179", "Sys": "0 0.0285 0"}
{"sequence": "AGGGUCUCGA", "pool": "2.93", "IR": "0.945 0.761 0.602", "LM": "0 0 0", "Sys": "0 0 0"}
{"sequence": "AGGGUCUCGC", "pool": "4.03", "IR": "4.75 4.80 4.17", "LM": "0.913 0.0261 0.833", "Sys": "0.635 0 0.0331"}
{"sequence": "AGGGUCUCGG", "pool": "4.64", "IR": "1.56 1.52 1.16", "LM": "0 0 0.0298", "Sys": "0.131 0 0"}
{"sequence": "AGGGUCUCGU", "pool": "3.70", "IR": "2.20 1.34 1.33", "LM": "0.0223 0 0.0298", "Sys": "0.0187 0 0"}
{"sequence": "AGGGUCUCUA", "pool": "3.42", "IR": "2.27 2.99 2.45", "LM": "0.979 0 1.22", "Sys": "0 0 0.0165"}
{"sequence": "AGGGUCUCUC", "pool": "4.82", "IR": "3.66 4.15 3.57", "LM": "1.27 1.57 0.982", "Sys": "0.0561 1.60 0.893"}
{"sequence": "AGGGUCUCUG", "pool": "3.88", "IR": "3.21 2.81 3.10", "LM": "1.11 0 0.833", "Sys": "0 0 0.0496"}
{"sequence": "AGGGUCUCUU", "pool": "3.08", "IR": "2.98 2.70 2.11", "LM": "1.11 0 0.684", "Sys": "0 0 0.0165"}

2 of these entries, quoted again:

| sequence | pool | IR | LM | Sys |
|---|---|---|---|---|
| AGGGUCGGAC | 2.25 | 1.61 1.76 0.688 | 1.09 1.65 0.446 | 0 0 0.0496 |
| AGGGUCGGCU | 0.0329 | 0 0 0 | 0 0 0 | 0 0 0 |

Wild type was 44.9 per thousand in the pool and the most common sequence in every sample (inoculated region 297, 323, 447; leaf margin 793, 829, 846; systemic leaves 974, 853, 877). With 23,251-70,159 reads a sample, very low values are single reads.